Measured values taken from BindingDB's records for 11855986 (2002).

The chains behind the UniProt entries cited, without tags or fusion partners. Residues count along the entry.
UniProt P12392, 21-495 limits assumed: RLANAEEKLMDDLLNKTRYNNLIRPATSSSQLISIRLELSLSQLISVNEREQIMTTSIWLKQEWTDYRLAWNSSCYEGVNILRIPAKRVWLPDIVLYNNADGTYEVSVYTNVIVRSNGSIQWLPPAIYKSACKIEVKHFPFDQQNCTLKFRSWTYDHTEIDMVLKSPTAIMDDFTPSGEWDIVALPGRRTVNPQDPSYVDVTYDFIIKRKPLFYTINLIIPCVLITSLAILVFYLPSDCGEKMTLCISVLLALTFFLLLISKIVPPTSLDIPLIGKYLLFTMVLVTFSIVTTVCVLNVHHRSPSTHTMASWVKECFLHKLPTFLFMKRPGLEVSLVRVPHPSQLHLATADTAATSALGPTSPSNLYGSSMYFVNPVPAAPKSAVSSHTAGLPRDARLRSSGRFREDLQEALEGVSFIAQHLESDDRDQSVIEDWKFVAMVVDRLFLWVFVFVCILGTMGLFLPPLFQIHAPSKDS

Target: Neuronal acetylcholine receptor subunit beta-4 (Rattus norvegicus, UniProt P12392)
Assay: Binding affinity to Nicotinic acetylcholine receptor alpha3-beta4 using +/-[3H]epibatidine as radioligand in pig adrenal gland

With `CC(=O)C1=CCCC2CCC1N2` (stereo unspecified) as the molecule, how does the pKi read?
Its pKi is 7.72.

pKi: −log10 of the molar value.
